Source: publication PMC10215740 (Antibiotics, 2023)

Experiment: Microdialysis catheter relative recovery (retrodialysis by drug)
Parameters: species or system pigs (Danish Landrace breed)
Details: microdialysis CMA 70 catheters, 0.9% NaCl with 100 µg/mL meropenem and 300 µg/mL vancomycin, 40 min recovery sample, flow 1 μL/min, range of means across compartments

## C[C@@H](O)[C@H]1C(=O)N2C(C(=O)O)=C(S[C@@H]3CN[C@H](C(=O)N(C)C)C3)[C@H](C)[C@H]12 [Meropenem, meropenem]
  mean relative recoveries across compartments: 30–51%
